Experimental data: ChEMBL document CHEMBL4831515 (J Med Chem, 2021)

Assay: in vitro
Settings: human, microsomes

## Cc1cc(C#N)cc(C)c1Oc1nc(NC2CCN(Cc3ccc(S(N)(=O)=O)cc3)CC2)nc2ccsc12
  half-life at 2 h: 2.4 min
